The values that follow come from article PMC8800143.

The target in the experiment is SARS-CoV-2 spike S1 alpha variant (B.1.1.7) (SARS-CoV-2). Put plainly: BLI.

As to “Fc-tag tagged human ACE2 (from UniProt Q9BYF1) (Fc fusion)”, the Kd is 20.8 nM.
